Test results published in PubChem BioAssay AID504621 (Broad Institute, 2011).
The list shows a part of the results, in another mix than the full data. Calls of active or inactive are those of the source.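 How the source made its calls: active means every replicate shows inhibition above about 80%, whatever the replicate mean (limit read from the data); inconclusive means mean inhibition reaches the set limit but some replicate falls short; inactive means the rest.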

Experiment: reduced ATP signal of yeast carrying P. falciparum Hsp90 – S. cerevisiae, BacTiter-Glo luminescence, single point, set 2, antimalarial PfHsp90 inhibitor project, primary screen (AID 504621);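 further: yeast relying on Plasmodium falciparum Hsp90 in place of its own; 0% = DMSO neutral controls and 100% = 20 µM radicicol positive controls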
Settings: S. cerevisiae expressing PfHsp90, growth, 48 h, at 9.4 µM, hits give high values, yeast lacking PDR1 and PDR3 efflux regulators

Compound	inhibition
Cc1cc(C)cc(OP(C)(=O)Nc2ccc(SC(F)(F)F)cc2)c1 (stereo unspecified)	inactive: -23.1%
